Anti-infective test results gathered from many reports (values: NIAID ChemDB through PubChem).

All rows: host cell toxicity; cell line: HeLa; read-out: CC50

Rows are shuffled and stem from different studies. CCn is the concentration with n% toxicity to the cells. Blank or dashed fields: not listed here.

SMILES,method,value
CS/C(Nc1cccc([N+](=O)[O-])c1)=C(/C#N)S(=O)(=O)c1ccccc1,MTT / absorbance,<0.14 µM
O[C@@H]1[C@@H](OCc2ccccc2)[C@@H](COCc2ccccc2)O[C@H]1n1cnc2cc(Cl)c(Cl)cc21,,≥40 µg/mL
CC(=O)OC1C=COC=C2C[C@@]34SC(=O)S[C@]5(CC6=COC=CC(OC(C)=O)C6N5C3=O)C(=O)N4C21,,111 µg/mL
Cc1cccc(OCCNC(=O)c2cccnc2Cl)c1,,>172 µM
C[C@]1(CO)O[C@@H](n2ccc(N)nc2=O)C[C@@H]1O,MTT,>200 µM
Cc1cccc(OCCNC(=O)c2ccccc2F)c1,,170 µM
CS/C(Nc1cccc(C#N)c1)=C(/C#N)S(=O)(=O)c1ccccc1,MTT / absorbance,2.31 µM
O=C1C=COC=C2C[C@@]34SS[C@]5(CC6=COC=CC(O)C6N5C3=O)C(=O)N4C12,,0.8 µg/mL
CC(=O)[C@]1(O)Cc2c(O)c3c(c(O)c2[C@@H](O[C@H]2C[C@H](N)[C@H](O)[C@H](C)O2)C1)C(=O)c1c(O)cccc1C3=O,,<1 µg/mL
C[C@@]12CC[C@]3(C1)C(C[C@@H](OC(=O)c1ccccc1)[C@H]1[C@@](CO)(C(=O)O)CCC[C@@]13C)C[C@@H]2O,,2.2 µM
O=C(NCCOc1ccc2ccccc2c1)c1ccccc1Cl,,89.6 µM
CSS[C@@]12CC3=COC=CC(OC(C)=O)C3N1C(=O)[C@]1(SSC)CC3=COC=CC(OC(C)=O)C3N1C2=O,,20 µg/mL
COC(=O)[C@@H]1c2cc3c(c(O)c2[C@@H](OC2OC(C)C(OC)C(C)(OC)C2OC)C[C@]1(C)O)C(=O)c1c(O)cc2c(c1C3=O)O[C@H]1O[C@]2(C)[C@H](O)[C@@H](N(C)C)[C@@H]1O,,<10 µg/mL
CS/C(Nc1cccc(C(F)(F)F)c1)=C(/C#N)S(=O)(=O)c1ccc(Cl)cc1,MTT / absorbance,3.05 µM
C[C@H]1O[C@@H](c2ccc3c(c2O)C(=O)C2=C(C3=O)[C@@]3(O)C(=O)C[C@](C)(O)C[C@@]3(O)C=C2)C[C@@H](O)[C@@H]1O,,43 µM
C[C@]1(CO)O[C@@H](n2ccc(N)nc2=O)C[C@@H]1O,,>200 µM
Nc1ncnc2c1ncn2C[C@@H](CO)OCP(=O)(O)O,trypan blue,>125 µg/mL
CC(N)C(=O)NC1C(C)OC(=O)C2=C(O)CC(O)C(O)C21,,167 µM
CCOC(=O)OC1C=COC=C2C[C@@]34SS[C@]5(CC6=COC=CC(OC(=O)OCC)C6N5C3=O)C(=O)N4C21,,50 µg/mL
COC(=O)[C@]1(C)CCC[C@@]2(C)[C@H]1[C@H](OC(=O)c1ccccc1)CC1CC(=O)[C@]3(C)CC[C@]12C3,,17.8 µM
C#C[C@]1(CO)O[C@@H](n2cc(C)c(=O)[nH]c2=O)C[C@@H]1O,,200 µM
CCOC(=O)C1=C[C@@H](OC(CC)CC)[C@H](NC(C)=O)[C@@H](N)C1,,>100 µg/mL
CC(=O)OC1C=COC=C2C[C@@]34S[C@]5(CC6=COC=CC(OC(C)=O)C6N5C3=O)C(=O)N4C21,,14.4 µg/mL
Nc1ccn([C@H]2CC[C@@H](CO)O2)c(=O)n1,MTT,>100 µM
CC(=O)Oc1ccccc1C(=O)NCCOc1cccc(C)c1,,66.7 µM
COC(=O)OC1CCC2(C)C(=CCC3C2CCC2(C)C(C(C)CCCC(C)C)CCC32)C1,,>200 µg/mL
Cc1cccc(OCCNC(=O)c2ccc(C)cc2Cl)c1,,154.1 µM
NC[C@@H]1O[C@H](O[C@H]2[C@@H](O)[C@H](O[C@@H]3[C@@H](O)[C@H](N)C[C@H](N)[C@H]3O[C@H]3O[C@H](CO)[C@@H](O)C[C@H]3N)O[C@@H]2CO)[C@H](N)[C@@H](O)[C@@H]1O[C@H]1O[C@H](CO)[C@@H](O)[C@H](O)[C@@H]1O,,200 µg/mL
OCCOC([C@H](O)CO)n1cnc2cc(Cl)c(Cl)cc21,,≥400 µg/mL
Cc1cccc(OCCNC(=O)c2ccc(O)cc2Cl)c1,,119.4 µM
CC(=O)O[C@@H]1CC2C[C@@H](OC(=O)c3ccccc3)[C@H]3[C@](C)(C(=O)O)CCC[C@]3(C)[C@]23CC[C@]1(C)C3,,69 µM
CC[C@]1(CO)O[C@@H](n2cc(C)c(=O)[nH]c2=O)C[C@@H]1O,,>100 µM
CNCC1=CC[C@@H](N)[C@@H](O[C@H]2[C@H](O)[C@@H](O[C@H]3OC[C@](C)(O)[C@H](NC)[C@H]3O)[C@H](N)C[C@@H]2N)O1,,>200 µg/mL
CC(C)[Si]1(C(C)C)OC[C@H]2O[C@@H](n3cnc4cc(Cl)c(Cl)cc43)[C@H](O)[C@H]2O[Si](C(C)C)(C(C)C)O1,,≥40 µg/mL
Cc1cccc(OC2CN(C(=O)c3ccccc3Cl)C2)c1,,127.9 µM
Nc1ncnc2c1ccn2[C@@H]1O[C@H](CO)[C@@H](O)[C@H]1O,trypan blue,1.25 µg/mL
CC1=C(/C=C/C(C)=C/C=C/C(C)=C/C=C/C=C(C)/C=C/C=C(C)/C=C/C2=C(C)CCCC2(C)C)C(C)(C)CCC1,,>200 µg/mL
O=C(NCCOc1ccccc1)c1ccccc1O,,137.2 µM
COC(=O)[C@]1(C)CCC[C@@]2(C)[C@H]1[C@H](OC(=O)c1ccccc1)CC1C[C@H](O)[C@]3(C)CC[C@]12C3,,8.1 µM
C#C[C@]1(CO)O[C@@H](n2ccc(N)nc2=O)[C@@H](O)[C@@H]1O,,>200 µM
O=[N+]([O-])c1cc(Cl)c(Cl)cc1[N+](=O)[O-],,10 µg/mL
C=C[C@]1(CO)O[C@@H](n2cc(C)c(=O)[nH]c2=O)C[C@@H]1O,,>100 µM
Cn1ncnc2c(=O)n(C)c(=O)nc1-2,fluorescence,0.43 µM
C#C[C@]1(CO)O[C@@H](n2cnc3c(N)ncnc32)C[C@@H]1O,MTT,>200 µM
Cc1ccc2oc(-c3ccc(O)cc3O)nc2c1,,26.11 µM
COc1cc(-c2oc3cc(O)cc(O)c3c(=O)c2O)ccc1O,trypan blue,4 µg/mL
COC(=O)[C@]1(C)CCC[C@@]2(C)[C@H]1[C@H](O)CC1C[C@@H](O)[C@]3(C)CC[C@]12C3,,226 µM
CN[C@@H]1[C@@H](O)[C@@H](O[C@@H]2[C@@H](O)[C@H](O[C@H]3O[C@H](CN)[C@@H](O)[C@H](O)[C@H]3N)[C@@H](N)C[C@H]2N)OC[C@]1(C)O,,>100 µg/mL
O=C(CCCCCNc1ccc([N+](=O)[O-])c2nonc12)ON1C(=O)CCC1=O,fluorescence,>50 µM
CS/C(Nc1cccc(C(C)C)c1)=C(/C#N)S(=O)(=O)c1ccccc1,MTT / absorbance,18.2 µM
C[C@@]12CC[C@]3(C1)C(C[C@@H](OC(=O)c1ccccc1)[C@H]1[C@](C)(C(=O)O)CCC[C@@]13C)C[C@@H]2O,,45.5 µM
N=C(N)c1ccc2[nH]c(C(=N)N)cc2c1,trypan blue,>200 µg/mL

The last 8 rows once more:

SMILES | method | value
Cc1ccc2oc(-c3ccc(O)cc3O)nc2c1 |  | 26.11 µM
COc1cc(-c2oc3cc(O)cc(O)c3c(=O)c2O)ccc1O | trypan blue | 4 µg/mL
COC(=O)[C@]1(C)CCC[C@@]2(C)[C@H]1[C@H](O)CC1C[C@@H](O)[C@]3(C)CC[C@]12C3 |  | 226 µM
CN[C@@H]1[C@@H](O)[C@@H](O[C@@H]2[C@@H](O)[C@H](O[C@H]3O[C@H](CN)[C@@H](O)[C@H](O)[C@H]3N)[C@@H](N)C[C@H]2N)OC[C@]1(C)O |  | >100 µg/mL
O=C(CCCCCNc1ccc([N+](=O)[O-])c2nonc12)ON1C(=O)CCC1=O | fluorescence | >50 µM
CS/C(Nc1cccc(C(C)C)c1)=C(/C#N)S(=O)(=O)c1ccccc1 | MTT / absorbance | 18.2 µM
C[C@@]12CC[C@]3(C1)C(C[C@@H](OC(=O)c1ccccc1)[C@H]1[C@](C)(C(=O)O)CCC[C@@]13C)C[C@@H]2O |  | 45.5 µM
N=C(N)c1ccc2[nH]c(C(=N)N)cc2c1 | trypan blue | >200 µg/mL